Test results as given in paper PMC10097024, “Cytotoxic and Antibacterial Prenylated Acylphloroglucinols from Hypericum olympicum L” (Plants, 2023).

Key:
MRSA biofilm = assay: Biofilm assay of MRSA; assay type: cell-based, Staphylococcus aureus
From the text: The Gram-positive bacterial strains that were examined for susceptibility were: Staphylococcus aureus (ATCC 29213, American Type Cell Culture Collection, Manassas, VA, USA), Staphylococcus aureus—MRSA (NBIMCC 8327-resistant to methicillin and oxacillin, National Bulgarian Collection for Industrial Microorganisms and Cell Cultures, Sofia, Bulgaria), Enterococcus faecalis (ATCC 29212) and Streptococcus pyogenes (SAIMC 10535, Collection of the Stephan Angeloff Institute of Microbiology, Sofia, Bulgaria). The only Gram-negative bacterial strain used was Escherichia coli (ATCC 35218). Bacteria were maintained in Trypticase Soy Broth (TSB, Himedia, India) at 37 °C, aerobic conditions. For the experiments brain heart infusion (BHI) broth (#M210 HiMedia, Mumbai, India) was used for E. faecalis and S. pyogenes and Mueller Hinton broth (MHB, #M0405B) from Thermo Scientific-Oxoid (Basingstoke, UK)—for all other strains.
The bacterial inoculum was prepared as described above for the BMD. […] After that an optimized protocol was applied for the visualization of the biofilm. Firstly, the supernatant was removed, and planktonic cells were removed by washing the wells carefully 3× with 200 μL/well PBS. Then, fixing of the remaining cells was performed by incubation with 200 μL/well methanol for 15 sec at room temperature. The methanol was removed and the plate was dried by air for 5–10 s. Next, 50 μL of 2% Hucker crystal violet was poured into the wells and excess stain was rinsed off by running tap water. […] Then the dye bound to biofilm in the wells was re-solubilized with 160 μL 33% acetic acid and the absorbance of each well was measured at 550 nm with lid (Table S1 in Supplementary Materials). […] MBIC were assessed visually and MBIC50 were calculated by GraphPad Prism software with a mathematical model for a dose–response relationship (variable slope) after normalization of the data and logarithmic transformation of the applied concentrations (X-data).

EA.hy926 = assay: MTT cytotoxicity test; assay type: cell-based, human; settings: SI = IC50(EA.hy926)/IC50(x), x = average IC50 of all chemo-sensitive tested tumor cell lines
From the text: (§1) The group of human cell lines used in this study were represented by the tumor cell lines MDA-MB (breast carcinoma), EJ (urinary bladder carcinoma), K-562 (chronic myeloid leukemia), HL-60 (acute pre-myeloid leukemia), HL-60/DOX (multi-drug resistant HL-60 cell line, with over expression of MRP-1) and the non-tumorigenic cell lines HEK-293 (embryonic kidney cells) and EA.hy926 (vascular endothelial cells). EJ, HL60 and EA.hy926 were purchased from American Type Culture Collection (ATCC) (Manassas, Virginia). The other cell lines were purchased from the German Collection of Microorganisms and Cell Cultures (DSMZ GmbH, Braunschweig, Germany). HL-60/DOX cell lines were generated by periodically treating HL-60 cells with anthracyclins. The conditions in which the cell culture flasks were maintained were as follows: 37 °C in an incubator “BB 16-Function Line” Heraeus (Kendro, Hanau, Germany) with 5% CO2 humidified atmosphere. The growth medium was 90% RPMI-1640, supplemented with 10% FBS and 2 mM L-glutamine. MDA-MB-231, EJ, HEK-293 and EA.hy926 cells were maintained as adherent monolayer cultures while all the other (leukemic) cell lines were grown as suspension type cultures. Cells were maintained in log phase: the adherent cell lines were subjected to trypsinization 1–2 times a week and the leukemic cell lines were passaged 2–3 times a week by removing of part of the cellular suspension and substituting it with fresh medium.
(§2) The evaluation of cytotoxic activity was conducted by MTT test as described previously. The median inhibitory concentration (IC50) values which represent the half-maximal concentration values were calculated from sigmoidal concentration–response curves, using non-linear regression analysis (Curve fit, GraphPad Prizm 5.0 software, GraphPad Software Inc., San Diego, CA, USA). The selectivity index was calculated as the ratio of the IC50 of a non-cancerous line (HEK-293 or EA.hy926) and the average IC50 of all chemosensitive tested tumor cell lines (x). Therefore, SI=IC50HEK-293/IC50x . The resistance index (RI) was calculated as the ratio of IC50 of the multi-drug resistant HL-60/DOX cell line and the IC50 of its parent cell line: RI=IC50HL-60/DOX/IC50HL-60 .

HL-60/DOX = assay: MTT cytotoxicity test; assay type: cell-based, human; settings: RI = IC50(HL-60/DOX)/IC50(HL-60)
From the text: as §1, §2

HEK-293 = assay: MTT cytotoxicity test; assay type: cell-based, human; settings: SI = IC50(HEK-293)/IC50(x), x = average IC50 of all chemo-sensitive tested tumor cell lines
From the text: as §1, §2

Compound | MBIC as multiple of MIC (MRSA biofilm) | SIEA.hy926/x (EA.hy926) | RI (HL-60/DOX) | SIHEK-293/x (HEK-293)
(1R,5R,7S,8R)-4-hydroxy-5,8-dimethyl-3,7-bis(3-methylbut-2-en-1-yl)-1-(2-methylbutanoyl)-8-(4-methylpent-3-en-1-yl)bicyclo[3.3.1]non-3-ene-2,9-dione [Compound 4] | MIC | 0.35 | 0.55 | 2.39
CC(C)=CCC[C@]1(C)[C@@H](CC=C(C)C)C[C@]2(C)C(=O)C(CC=C(C)C)=C(O)[C@@]1(C(=O)C(C)C)C2=O [Compound 3, hyperpolyphyllirin/hyperibine J] | ½ MIC | 3.21 | 0.12 | 1.73
CC(C)=CCC/C(C)=C/COc1cc(O)cc(O)c1C(=O)C(C)C [Compound 1, (E)-1-[2-{(3,7-dimethylocta-2,6-dien-1-yl)oxy}-4,6-dihydroxyphenyl]-2-methylpropan-1-one] | – | 0.46 | 0.34 | 1.02
CC(C)=CCC[C@]1(C)[C@@H](CC=C(C)C)C[C@H]2C(=O)[C@]1(C(=O)C(C)C)C(=O)C(CC=C(C)C)=C2O [Compound 5, (1S,5R,7S,8R)-4-hydroxy-1-isobutyryl-8-methyl-3,7-bis(3-methylbut-2-en-1-yl)-8-(4-methylpent-3-en-1-yl)bicyclo[3.3.1]non-3-ene-2,9-dione] | ½ MIC | 7.14 | 1.47 | 0.68
CC[C@H](C)C(=O)c1c(O)cc(O)cc1OC/C=C(\C)CCC=C(C)C [Compound 2, olympicin A] | – | 3.00 | 0.14 | 1.99
